The text below walks through data of paper PMC8609006, “Design of modular autoproteolytic gene switches responsive to anti-coronavirus drug candidates” (Nature Communications, 2021).

The experiment deals with T1, SARS-CoV PLpro (PLpro(S1)) (Severe acute respiratory syndrome-related coronavirus, UniProt P0C6X7).
T1 construct: gene rep
Type of experiment: cell-based.

For `Cc1ccc(N)cc1C(=O)N[C@H](C)c1cccc2ccccc12` [GRL-0617], the “fold activation of nanoLuc over non-induced (maximum)” value was found to be 120 fold.
